Pooled drug test results. Numbers come from NIAID ChemDB, via PubChem.

Common to all: whole-cell or culture tests; species: HIV-1; cells: MT-4; measure: EC50

ECn: concentration that inhibits the pathogen or its effect by n%.

smiles | strain or isolate | mutations | method | value
COc1ccc(CCNc2nc(NC(=O)Nc3ccc4ccccc4c3)nc(Oc3cc(=O)oc4ccccc34)n2)cc1OC | IIIB |  | MTT | >12.85 µg/mL
[N-]=[N+]=N[C@H]1C[C@H](CO)S[C@@H]1n1cnc2c(Cl)ncnc21 |  |  |  | >100 µM
N#Cc1cc(Cl)cc(Oc2c(Br)ccc(CC(=O)Nc3ccc(S(N)(=O)=O)cc3Cl)c2F)c1 |  | K103N/Y181C |  | 0.0012 µM
CC(C)CN(C[C@@H](O)[C@H](Cc1ccccc1)NC(=O)O[C@H]1CO[C@H]2OCC[C@H]21)S(=O)(=O)c1ccc(-c2coc(-c3ccc(C#N)cc3)n2)cc1 | LAI |  | cytopathic effect / MTT | 0.008 µM
COc1ccccc1NC(=O)Nc1nc(NCCc2ccc(OC)c(OC)c2)nc(Oc2cc(=O)oc3ccccc23)n1 | IIIB |  | MTT | >25.48 µg/mL
C[C@@H](O)[C@@H](CN[C@]12CC[C@@H](C3(C)CC3)[C@@H]1[C@H]1CC[C@@H]3[C@@]4(C)CC[C@H](OC(=O)[C@H]5C[C@@H](C(=O)O)C5(C)C)C(C)(C)[C@@H]4CC[C@@]3(C)[C@]1(C)CC2)N1CCS(=O)(=O)CC1 | NL4-3 |  | p24 / ELISA | <0.01 µM
CC(C)CN(C[C@@H](O)[C@H](Cc1ccccc1)NC(=O)O[C@H]1CO[C@H]2OCC[C@H]21)S(=O)(=O)c1ccc(N)c(NCc2ccc(F)cc2F)c1 | IIIB WT |  | GFP | 0.00363 µM
CCc1c(Cc2cc(C)cc(C)c2)n(COC/C(=C/Sc2ccccc2)Sc2ccccc2)c(=O)[nH]c1=O | IIIB | EFV-resistant (K103R V179D P225H) | MTT | >60 µM
CC1(C)C(N)=CS(=O)(=O)N1Cc1cccc(Cl)c1 | IIIB |  | cytopathic effect / MTT | >125 µg/mL
CC(C)CN(C[C@@H](O)[C@H](Cc1ccccc1)NC(=O)O[C@H]1CO[C@H]2OCC[C@H]21)S(=O)(=O)c1ccc(-c2coc(-c3ccco3)n2)cc1 |  | PR-L010F M046I M071V I084V | cytopathic effect / MTT | 0.1788 µM
Cn1cc(NC(=O)Nc2cc(C(=O)Nc3cc(C(=O)Nc4ccc(S(=O)(=O)O)c5cc(S(=O)(=O)O)ccc45)n(C)c3)n(C)c2)cc1C(=O)Nc1cc(C(=O)Nc2ccc(S(=O)(=O)O)c3cc(S(=O)(=O)O)ccc23)n(C)c1 | DPS-181_ |  | cytopathic effect / XTT | 4.8 µM
Nc1c(-c2ccccc2)c(-c2ccccc2)n(COCCO)c1-c1ccccc1 |  |  | cytopathic effect / MTT | >42 µM
CCc1c(Cc2cc(C)cc(C)c2)n(COCC#Cc2cnccn2)c(=O)[nH]c1=O | IIIB | WT | MTT | 0.02 µM
CC1(C)C(N)=CS(=O)(=O)N1Cc1ccc(Cl)cc1 | IIIB |  | cytopathic effect / MTT | >125 µg/mL
CNc1ncnc2c1ncn2[C@@H]1S[C@H](CO)C[C@@H]1N=[N+]=[N-] |  |  |  | >100 µM
CCn1cc(C(=O)O)c(=O)c2cc(F)c(N3CCN(CN4C(=O)C(=Nc5ccc(S(=O)(=O)Nc6ncnc(OC)c6OC)cc5)c5cc(Cl)ccc54)CC3)cc21 | IIIB |  | cytopathic effect / MTT | >51 µg/mL
COCCNc1cc(S(=O)(=O)N(CC(C)C)C[C@@H](O)[C@H](Cc2ccccc2)NC(=O)O[C@H]2CO[C@H]3OCC[C@H]32)ccc1N | IIIB WT |  | GFP | 0.0055 µM
[N-]=[N+]=N[C@H]1C[C@@H](CO)S[C@@H]1n1cnc2c(N)ncnc21 |  |  |  | >100 µM
CCOC(=O)CNc1nc(NC(=O)Nc2ccccc2Cl)nc(Oc2cc(=O)oc3ccccc23)n1 | IIIB |  | MTT | >78.8 µg/mL
CCn1cc(C(=O)O)c(=O)c2cc(F)c(N3CCN(CN4C(=O)/C(=N\c5ncc(Cc6cc(OC)c(OC)c(OC)c6)c(N)n5)c5cc(Br)ccc54)CC3)cc21 | IIIB |  | cytopathic effect / MTT | 13.9 µg/mL
Cc1cn([C@H]2C[C@H](N=[N+]=[N-])[C@@H](CO)O2)c(=O)[nH]c1=O | Clinical isolate |  | MTT | 0.0165 µg/mL
CCC(C)Oc1nc(Cc2ccccc2)c(C)c(=O)[nH]1 | IIIB |  | cytopathic effect / MTT | 2.9 µM
C=C(C)[C@@H]1CC[C@]2(NC[C@H]([C@@H](C)O)N3CCS(=O)(=O)CC3)CC[C@]3(C)[C@H](CC[C@@H]4[C@@]5(C)CC[C@H](OC(=O)C6CC(C(=O)O)C6(C)C)C(C)(C)[C@@H]5CC[C@]43C)[C@@H]12 | NL4-3 |  | p24 / ELISA | <0.01 µM
CCOC(=O)CNc1nc(NC(=O)Nc2ccc(OC)cc2)nc(Oc2cc(=O)oc3ccccc23)n1 | IIIB |  | MTT | >85.9 µg/mL
Nc1nc(=O)n([C@H]2CC[C@H](CO)O2)cc1F | RF |  | MTT | >436 µM
NS(=O)(=O)c1ccc(-c2c3nc(c(-c4ccc(S(N)(=O)=O)cc4)c4ccc([nH]4)c(-c4ccc(S(N)(=O)=O)cc4)c4nc(c(-c5ccc(S(N)(=O)=O)cc5)c5ccc2[nH]5)C=C4)C=C3)cc1 | IIIB |  | cytopathic effect / MTT | 18 µg/mL
CC1([C@@H]2CC[C@]3(NC[C@H](C(=O)O)N4CCS(=O)(=O)CC4)CC[C@]4(C)[C@H](CC[C@@H]5[C@@]6(C)CC[C@H](OC(=O)[C@H]7C[C@@H](C(=O)O)C7(C)C)C(C)(C)[C@@H]6CC[C@]54C)[C@@H]23)CC1 | NL4-3 |  | p24 / ELISA | >0.05 µM
CC1(C)[C@@H](O[C@H]2O[C@H](C(=O)O)[C@@H](O)[C@H](O)[C@H]2O[C@@H]2O[C@H](C(=O)O)[C@@H](O)[C@H](O)[C@H]2O)CC[C@]2(C)[C@H]3C(=O)C=C4[C@@H]5C[C@@](C)(C(=O)O)CC[C@]5(C)CC[C@@]4(C)[C@]3(C)CC[C@@H]12 | IIIB |  | cytopathic effect | <150 µM
CCc1c(Cc2cc(C)cc(C)c2)n(COCc2cn(-c3cccnc3)nn2)c(=O)[nH]c1=O | IIIB | Y181C | MTT | 20 µM
CCc1c(Cc2ccccc2)nc(OC)[nH]c1=O | IIIB |  | cytopathic effect / MTT | >200 µM
Cc1nc(-c2ccc(S(=O)(=O)N(CC(C)C)C[C@@H](O)[C@H](Cc3ccccc3)NC(=O)O[C@H]3CO[C@H]4OCC[C@H]43)cc2)co1 |  | PR-L010F M046I M071V I084V | cytopathic effect / MTT | 0.168 µM
CCn1cc(C(=O)O)c(=O)c2cc(F)c(N3CCN(CN4C(=O)/C(=N\c5ncc(Cc6cc(OC)c(OC)c(OC)c6)c(N)n5)c5ccccc54)CC3)cc21 | IIIB |  | cytopathic effect / MTT | >66 µg/mL
C[C@H](F)[C@@H](CN[C@]12CC[C@@H](C3(C)CC3)[C@@H]1[C@H]1CC[C@@H]3[C@@]4(C)CC[C@H](OC(=O)[C@H]5C[C@@H](C(=O)O)C5(C)C)C(C)(C)[C@@H]4CC[C@@]3(C)[C@]1(C)CC2)N1CCS(=O)(=O)CC1 | NL4-3 |  | p24 / ELISA | 0.01001–0.05 µM
COc1ccc(CCNc2nc(NC(=O)Nc3ccc(Br)cc3)nc(Oc3cc(=O)oc4ccccc34)n2)cc1OC | IIIB |  | MTT | >47.63 µg/mL
CC1([C@@H]2CC[C@]3(NC[C@H](CO)N4CCS(=O)(=O)CC4)CC[C@]4(C)[C@H](CC[C@@H]5[C@@]6(C)CC[C@H](OC(=O)[C@H]7C[C@@H](C(=O)O)C7(C)C)C(C)(C)[C@@H]6CC[C@]54C)[C@@H]23)CC1 | NL4-3 |  | p24 / ELISA | <0.01 µM
CCc1c(Cc2cc(C)cc(C)c2)n(COCC#Cc2ccccc2C(F)(F)F)c(=O)[nH]c1=O | IIIB | EFV-resistant (K103R V179D P225H) | MTT | >25 µM
COCCOCC(=O)O[C@H](C)[C@@H](CN[C@]12CC[C@@H](C3(C)CC3)[C@@H]1[C@H]1CC[C@@H]3[C@@]4(C)CC[C@H](OC(=O)[C@H]5C[C@@H](C(=O)O)C5(C)C)C(C)(C)[C@@H]4CC[C@@]3(C)[C@]1(C)CC2)N1CCS(=O)(=O)CC1 | NL4-3 |  | p24 / ELISA | <0.01 µM
CCN1CCC[C@H]1CNc1cc(S(=O)(=O)N(CC(C)C)C[C@@H](O)[C@H](Cc2ccccc2)NC(=O)O[C@H]2CO[C@H]3OCC[C@H]32)ccc1N | IIIB WT |  | GFP | 0.126 µM
CNc1ncnc2c1ncn2[C@H]1S[C@H](CO)C[C@@H]1N=[N+]=[N-] |  |  |  | >100 µM
CC(=O)OCCOCn1c(-c2ccccc2)cc([N+](=O)[O-])c1-c1ccccc1 |  |  | cytopathic effect / MTT | >37 µM
COc1nc(Cc2ccccc2)c(C)c(=O)[nH]1 | IIIB |  | cytopathic effect / MTT | >200 µM
CC(C)CN(C[C@@H](O)[C@H](Cc1ccccc1)NC(=O)OCc1cncs1)S(=O)(=O)c1ccc(-c2csc(Nc3ccncc3)n2)cc1 | LAI |  | cytopathic effect / MTT | 3.162 µM
CC1([C@@H]2CC[C@]3(NC[C@H](CO[Si](C)(C)C(C)(C)C)N4CCS(=O)(=O)CC4)CC[C@]4(C)[C@H](CC[C@@H]5[C@@]6(C)CC[C@H](OC(=O)[C@H]7C[C@@H](C(=O)O)C7(C)C)C(C)(C)[C@@H]6CC[C@]54C)[C@@H]23)CC1 | NL4-3 | V7A | p24 / ELISA | >0.1 µM
OCCOCn1c(-c2ccccc2)c(Br)c(Br)c1-c1ccccc1 |  |  | cytopathic effect / MTT | >51 µM
Cc1ncc(-c2ccc(S(=O)(=O)N(CC(C)C)C[C@@H](O)[C@H](Cc3ccccc3)NC(=O)O[C@H]3CO[C@H]4OCC[C@H]43)cc2)[nH]1 | LAI |  | cytopathic effect / MTT | 0.025 µM
[N-]=[N+]=N[C@H]1C[C@H](CO)S[C@H]1n1cnc2c(Cl)ncnc21 |  |  |  | >100 µM
CC(C)S(=O)(=O)N1CCN([C@@H](C)CN[C@]23CC[C@@H](C4(C)CC4)[C@@H]2[C@H]2CC[C@@H]4[C@@]5(C)CC[C@H](OC(=O)[C@H]6C[C@@H](C(=O)O)C6(C)C)C(C)(C)[C@@H]5CC[C@@]4(C)[C@]2(C)CC3)CC1 | NL4-3 |  | p24 / ELISA | <0.01 µM
Nc1ncn([C@@H]2CC[C@H](CO)O2)c(=O)n1 | RF |  | MTT | >471 µM
CC1(Cc2ccccc2)OS(=O)(=O)C=C1N | IIIB |  | cytopathic effect / MTT | >125 µg/mL
CCOC(=O)CNc1nc(NC(=O)Nc2cccc(C)c2)nc(Oc2cc(=O)oc3ccccc23)n1 | IIIB |  | MTT | >14.23 µg/mL
Cc1cccc(C)c1OCC(=O)N[C@@H](Cc1ccccc1)[C@H](O)CN(CC(C)C)S(=O)(=O)c1ccc(-c2ccn[nH]2)cc1 | LAI |  | cytopathic effect / MTT | 0.079 µM
O=c1cc(Cc2ccccc2)nc(OC2CCCC2)[nH]1 | IIIB |  | cytopathic effect / MTT | 41 µM
CCn1cc(C(=O)O)c(=O)c2cc(F)c(N3CCN(CN4C(=O)C(=Nc5ccc(S(=O)(=O)Nc6ncccn6)cc5)c5ccccc54)CC3)cc21 | IIIB |  | cytopathic effect / MTT | >48 µg/mL
Nc1nc(=O)n([C@H]2CC[C@@H](CO)O2)cc1F | RF |  | MTT | 0.175 µM
CC(=O)OCCOCn1c(-c2ccccc2)c(-c2ccccc2)c([N+](=O)[O-])c1-c1ccccc1 |  |  | cytopathic effect / MTT | >300 µM
CC(C)CN(C[C@@H](O)[C@H](Cc1ccccc1)NC(=O)O[C@H]1CO[C@H]2OCC[C@H]21)S(=O)(=O)c1ccc(N)c(NCC2CCCCC2)c1 | IIIB WT |  | GFP | 0.000794 µM
O=C(O)c1ccc(-c2c3nc(c(-c4ccc(C(=O)O)cc4)c4ccc([nH]4)c(-c4ccc(C(=O)O)cc4)c4nc(c(-c5ccc(C(=O)O)cc5)c5ccc2[nH]5)C=C4)C=C3)cc1 | IIIB |  | cytopathic effect / MTT | 0.9 µg/mL
CC(=O)N1CCN(CCNc2cc(S(=O)(=O)N(CC(C)C)C[C@@H](O)[C@H](Cc3ccccc3)NC(=O)O[C@H]3CO[C@H]4OCC[C@H]43)ccc2N)CC1 | IIIB WT |  | GFP | 1 µM
CCOC(=O)c1c(Br)c(-c2ccccc2)n(COCCO)c1-c1ccccc1 |  |  | cytopathic effect / MTT | >64 µM
CC(C)CN(C[C@@H](O)[C@H](Cc1ccccc1)NC(=O)O[C@H]1CO[C@H]2OCC[C@H]21)S(=O)(=O)c1ccc(N)c(NCCCN2CCCC2)c1 | IIIB WT |  | GFP | 0.269 µM
Nc1ccn([C@H]2CC[C@@H](CO)O2)c(=O)n1 | RF |  | MTT | 0.189 µM

Repeating the first 4 entries:

smiles	strain or isolate	mutations	method	value
COc1ccc(CCNc2nc(NC(=O)Nc3ccc4ccccc4c3)nc(Oc3cc(=O)oc4ccccc34)n2)cc1OC	IIIB		MTT	>12.85 µg/mL
[N-]=[N+]=N[C@H]1C[C@H](CO)S[C@@H]1n1cnc2c(Cl)ncnc21				>100 µM
N#Cc1cc(Cl)cc(Oc2c(Br)ccc(CC(=O)Nc3ccc(S(N)(=O)=O)cc3Cl)c2F)c1		K103N/Y181C		0.0012 µM
CC(C)CN(C[C@@H](O)[C@H](Cc1ccccc1)NC(=O)O[C@H]1CO[C@H]2OCC[C@H]21)S(=O)(=O)c1ccc(-c2coc(-c3ccc(C#N)cc3)n2)cc1	LAI		cytopathic effect / MTT	0.008 µM

Two numbers with a dash give a range or band. Conditions beyond the fields shown may differ between rows. An empty or dashed field is not shown.